Target: P. falciparum Rh5 (Rh5 – basigin interaction) (Plasmodium falciparum, UniProt Q8IFM5)
Experiment: Rh5-basigin AlphaScreen assay
Type: binding
Conditions: highest concentration tested 50 μM

Amino acid sequences for entries named in this document (tags omitted). Residues count along the entry.
UniProt Q8IFM5, 24-526 limits assumed: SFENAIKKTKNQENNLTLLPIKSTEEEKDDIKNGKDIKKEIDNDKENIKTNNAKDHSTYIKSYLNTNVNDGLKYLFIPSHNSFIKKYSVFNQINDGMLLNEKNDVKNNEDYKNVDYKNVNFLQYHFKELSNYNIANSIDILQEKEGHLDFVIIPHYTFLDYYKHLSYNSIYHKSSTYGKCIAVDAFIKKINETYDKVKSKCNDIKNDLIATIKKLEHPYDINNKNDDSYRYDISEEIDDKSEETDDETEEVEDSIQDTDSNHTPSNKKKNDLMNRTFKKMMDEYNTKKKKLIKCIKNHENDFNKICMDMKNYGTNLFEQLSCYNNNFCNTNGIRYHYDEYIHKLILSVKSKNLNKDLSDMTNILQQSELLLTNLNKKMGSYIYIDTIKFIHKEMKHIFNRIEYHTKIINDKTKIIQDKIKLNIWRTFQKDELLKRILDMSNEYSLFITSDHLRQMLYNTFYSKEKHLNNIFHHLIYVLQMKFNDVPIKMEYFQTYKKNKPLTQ

CCCc1c(OCC(O)COc2ccc3c(=O)cc(C(=O)O)oc3c2CCC)ccc(C(C)=O)c1O (stereo not shown) [FPL 55712, reference compound]
Rh5 inhibitory activity in the AlphaScreen assay: possess inhibitory activity

— publication PMC7645381, “Development and application of a high-throughput screening assay for identification of small molecule inhibitors of the P. falciparum reticulocyte binding-like homologue 5 protein” (International Journal for Parasitology: Drugs and Drug …, 2020)
